Pooled drug test results. Numbers come from NIAID ChemDB, via PubChem.

Shared fields: growth or infection tests; organism: Hepatitis C virus; read-out: EC50

Lines come from different laboratories, so protocols vary.

compound	strain or isolate	read by	conditions	value
CCCCCCCCOc1ccc(N(C(=O)C(N)=O)c2nc(-c3cccnc3)cs2)cc1C(F)(F)F	-	-	-	<1 µM
Cc1ccoc1C(=O)Nc1ccc(-c2cc(N(C(=O)C3CCC(C)CC3)C(C)C)c(C(=O)O)s2)cc1	1a	replicon	-	<0.5 µM
CCCCCOc1ccc2c(c1)[nH]c(=S)n2-c1nc(-c2cccnc2)cs1	-	-	-	>10 µM
CC(=O)N1c2cccc(O)c2NC2=C(C(=O)CC(C)(C)C2)C1c1ccsc1	1b	luciferase / reporter gene / replicon	-	1.77 µM
NC(=O)N(c1ccc(F)c(C(F)(F)F)c1)c1nc(-c2cccnc2)cs1	-	-	-	<1 µM
CCc1cc(C(=O)Nc2ccc(-c3cc(N(C(=O)C4CCC(C)CC4)C(C)C)c(C(=O)O)s3)cc2)no1	1a	replicon	-	<0.5 µM
CC1(C)COc2c1cc(-c1ccc[nH]c1=O)c1[nH]c(C(=O)O)c(-c3ccc[nH]c3=O)c21	-	replicon	-	<0.5 µM
CC1(C)CC(=O)C2=C(C1)Nc1c(O)cccc1N(C(=O)c1cnc3ccccc3n1)C2c1ccc(OCc2ccccc2)cc1F	1b	luciferase / reporter gene / replicon	-	1.23 µM
CC1CCC(C(=O)N(c2cc(-c3ccc(NC(=O)c4ccoc4)cc3)sc2C(=O)O)C(C)C)CC1	1a	replicon	-	<0.5 µM
CN(C)c1cc2c(cc1F)c(=O)c(-c1noc(Cc3ccccc3)n1)cn2Cc1ccc(C(F)(F)F)cc1F	1b	replicon	-	>10 µM
Nc1ncc(-c2ccc3nc(NCc4ccc(S(N)(=O)=O)cc4)nc(NCC(F)(F)F)c3n2)s1	-	replicon	-	<0.1 µM
CC1(C)CC(=O)C2=C(C1)Nc1c(O)cccc1NC2c1ccc(Cl)cc1	1b	luciferase / reporter gene / replicon	-	26.3 µM
CC(C)N(C(=O)c1ccc(Cl)cc1Cl)c1cc(-c2ccc(-c3cn4ccccc4n3)cc2)sc1C(=O)O	1b	luciferase / replicon	-	0.05–0.1 µM
COc1ccc2c(=O)c(-c3noc(Cc4ccccc4)n3)cn(Cc3ccc(C(F)(F)F)cc3)c2c1	1b	replicon	-	<10 µM
O=C(O)c1c(-c2ccc[nH]c2=O)c2c3occc3c(F)cc2n1Cc1cc(=O)[nH]c2ccccc12	-	replicon	-	<0.5 µM
CC1(C)CC(=O)C2=C(C1)Nc1c(O)cccc1N(C(=O)C(F)(F)F)C2c1ccc(Cl)cc1Cl	1b	luciferase / reporter gene / replicon	-	3.88 µM
COCCN(C(=O)c1ccc(Cl)cc1F)c1cc(-c2ccc(-c3cc4ncccn4n3)cc2)sc1C(=O)O	1b	luciferase / replicon	-	0.005–0.01 µM
O=c1c(-c2noc(Cc3ccccc3)n2)cn(CC2CCCCC2)c2ccc(O)cc12	1b	replicon	-	<2 µM
CCCCCOc1ccc(N(C(=O)c2cc(C)on2)c2nc(-c3cccnc3)cs2)cc1C(F)(F)F	-	-	-	<1 µM
CC(C)N(C(=O)c1ccc(Cl)cc1F)c1cc(-c2ccc(-c3cc4ncccn4n3)cc2)sc1C(=O)O	1a	replicon / ELISA	-	0.05–0.1 µM
Cc1nn(C)cc1C(=O)Nc1ccc(-c2cc(N(C(=O)C3CCC(C)CC3)C(C)C)c(C(=O)O)s2)cc1	1a	replicon	-	>0.5 µM
O=C(NS(=O)(=O)C1CC1)c1c(-c2ccc[nH]c2=O)c2c3occc3c(F)cc2n1Cc1cc(C(O)CO)ccc1F	-	replicon	-	<0.5 µM
CC1(C)CC(=O)C2=C(C1)Nc1c(O)cccc1NC2c1cccs1	1b	luciferase / reporter gene / replicon	-	>10 µM
CCCCCOc1ccc(N(C(=O)c2cc(C)on2)c2nc(-c3nc4ccccc4s3)cs2)cc1C(F)(F)F	-	-	-	<1 µM
CS(=O)(=O)CCNc1nc(NCc2ccc(S(N)(=O)=O)cc2)nc2ccc(-c3ccc(F)c(NS(=O)(=O)C4CC4)c3)nc12	-	replicon	-	0.1–0.25 µM
O=C(O)c1c(-c2ccccc2F)c2c3occc3c(F)cc2n1Cc1cc2ccccc2nc1Cl	-	replicon	-	<0.5 µM
CN1CCN(c2cc3c(cc2F)c(=O)c(-c2noc(C(CC#N)c4ccccc4)n2)cn3Cc2ccc(Cl)cc2)CC1	1b	replicon	-	>10 µM
CC(C)N(C(=O)c1ccc(Cl)cc1F)c1cc(-c2ccc(-c3cn4ccccc4n3)cc2)sc1C(=O)O	1a	replicon / ELISA	-	0.01–0.05 µM
CC1CCC(C(=O)N(c2cc(-c3ccc(NC(=O)c4cscn4)cc3)sc2C(=O)[O-])C(C)C)CC1.NC(CCCC[NH3+])C(=O)O	1b	replicon	-	<0.5 µM
CC1(C)CC(=O)C2=C(C1)Nc1c(O)cccc1N(C(=O)CCC(=O)N1CCOCC1)C2c1ccc(OCc2ccccc2)cc1Cl	1b	luciferase / reporter gene / replicon	-	4.08 µM
Cc1cc2ccc3c(c(-c4ccc[nH]c4=O)c(C(=O)NS(C)(=O)=O)n3Cc3ccccc3F)c2o1	-	replicon	-	0.5–1.5 µM
CC(C)C(=O)N1c2cccc(O)c2NC2=C(C(=O)CC(C)(C(C)C)C2)C1c1ccc(OCc2ccccc2)cc1F	1b	luciferase / reporter gene / replicon	-	1.38 µM
CC(C)N(C(=O)c1ccc(Cl)cc1Cl)c1cc(-c2ccc(-c3cc4nccc(N)n4n3)cc2)sc1C(=O)O	1a	replicon / ELISA	-	0.01–0.05 µM
CCOc1nc(NCc2ccc(F)cc2)nc2ccc(-c3ccc(NC(=O)[C@@H]4C[C@@H](O)CN4)cc3)nc12	-	replicon	-	<0.1 µM
CCOc1nc(N)nc2c1ncn2[C@@H]1O[C@@H]2COP(=O)(OC(C)C)O[C@H]2[C@@]1(C)F	2a	replicon	85 d	1.94 µM
CN1CCN(c2cc3c(cc2F)c(=O)c(-c2noc(Cc4ccccc4)n2)cn3Cc2ccc(Cl)nc2)CC1	1b	replicon	-	>10 µM
NC(=O)N(c1ccc(OCC2CCCCC2)c(F)c1)c1nc(-c2ccc(F)c(F)c2)cs1	-	-	-	<1 µM
CC1(C)CC(=O)C2=C(C1)Nc1c(O)cccc1N(C(=O)CC(=O)NS(=O)(=O)C1CC1)C2c1ccc(OCc2ccccc2)cc1Cl	1b	luciferase / reporter gene / replicon	-	40.42 µM
CCCCCOc1ccc(N(C(C)=O)c2nc(-c3cccnc3)cs2)cc1F	-	-	-	<1 µM
CN1CCN(c2cc3c(cc2F)c(=O)c(-c2noc(C(CC(N)=O)c4ccccc4)n2)cn3Cc2ccc(Cl)cc2)CC1	1b	replicon	-	>10 µM
CCOc1nc(NCc2ccc(F)cc2)nc2ccc(-c3cccc(S(N)(=O)=O)c3)nc12	-	replicon	-	<0.1 µM
CS(=O)(=O)NC(=O)c1c(-c2ccc[nH]c2=O)c2c3occc3c(F)cc2n1Cc1cc2[nH]cnc2cc1Cl	-	replicon	-	<0.5 µM
NS(=O)(=O)c1ccc(CNc2nc(NCC(F)(F)F)c3nc(-c4ccc(NC(=O)[C@H]5CCNC5)c(F)c4)ccc3n2)cc1	-	replicon	-	<0.1 µM
NC(=O)COc1ccc2c(c1)S(=O)(=O)N=C(c1c(O)c3cc(F)ccc3n(CCC3CC3)c1=O)N2	1b BK	replicon	-	0.051 µM

Repeating the final 5 entries:

compound | strain or isolate | read by | conditions | value
CN1CCN(c2cc3c(cc2F)c(=O)c(-c2noc(C(CC(N)=O)c4ccccc4)n2)cn3Cc2ccc(Cl)cc2)CC1 | 1b | replicon | - | >10 µM
CCOc1nc(NCc2ccc(F)cc2)nc2ccc(-c3cccc(S(N)(=O)=O)c3)nc12 | - | replicon | - | <0.1 µM
CS(=O)(=O)NC(=O)c1c(-c2ccc[nH]c2=O)c2c3occc3c(F)cc2n1Cc1cc2[nH]cnc2cc1Cl | - | replicon | - | <0.5 µM
NS(=O)(=O)c1ccc(CNc2nc(NCC(F)(F)F)c3nc(-c4ccc(NC(=O)[C@H]5CCNC5)c(F)c4)ccc3n2)cc1 | - | replicon | - | <0.1 µM
NC(=O)COc1ccc2c(c1)S(=O)(=O)N=C(c1c(O)c3cc(F)ccc3n(CCC3CC3)c1=O)N2 | 1b BK | replicon | - | 0.051 µM

Blank or dashed fields: not listed here. a–b is a range or a potency band. ECn: concentration that inhibits the pathogen or its effect by n%.